{"source": "paper PMC9453709", "about": "“Structural basis of a two-antibody cocktail exhibiting highly potent and broadly neutralizing activities against SARS-CoV-2 variants including diverse Omicron sublineages” (Cell Discovery, 2022)", "binders": {"B1": {"name": "D2, recombinant human immunoglobulin G1 (IgG1) (antibody, V domains shown)", "VH": "EVQLVESGGGLVQPGRSLTLSCGASGFTFEDYAMHWVRQAPGKGLEWVSGIDWNSGVIGYADSVKGRFIISRDNAKNSLYLHMRSLTAEDTALYYCAKDVYSESGSGSYYDYWGQGTLVTVSS", "VL": "QSVLTQPPSVSAAPGQKVAISCSGSTSNIGDNFVSWYQQFPGTAPKLLLYDDARRPSGIPDRFSGSKSGTSATLGITGLQTGDEAVYFCSTWDNSLNVVLFGGGTKLTVL"}}, "key": {"[1]": {"target": "SARS-CoV-2 wild-type spike N-terminal domain (WT-NTD) (SARS-CoV-2 wild type (WIV04/Wuhan-Hu-1), UniProt P0DTC2)", "test": "ELISA", "conditions": "both partners purified"}, "[2]": {"target": "SARS-CoV-2 wild-type receptor-binding domain (WT-RBD) (Severe acute respiratory syndrome …, UniProt P0DTC2)", "test": "cell-based or functional assay"}}, "data": [{"binder": "B1", "values": [{"measurement": "binding result", "setting": "[1]", "value": "no binding (tested: 5 μg/mL)"}, {"measurement": "IC50 of neutralisation of authentic SARS-CoV-2 in Vero E6 cells", "setting": "[2]", "value": 0.14, "unit": "µg/mL"}]}]}
